Data taken from publication PMC5775216.
The exact form of at least one protein or probe is not confirmed.

By UniProt entry, the sequences of proteins in these tests, tags left out. Where a name states a change or a piece, a line headed by the entry shows the natural chain unless it says otherwise.
UniProt Q83RR0: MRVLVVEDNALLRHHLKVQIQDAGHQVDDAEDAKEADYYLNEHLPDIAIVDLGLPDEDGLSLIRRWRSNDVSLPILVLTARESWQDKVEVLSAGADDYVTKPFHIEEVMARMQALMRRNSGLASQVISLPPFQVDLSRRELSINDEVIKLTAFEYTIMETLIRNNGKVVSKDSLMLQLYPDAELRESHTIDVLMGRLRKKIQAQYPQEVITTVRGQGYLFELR

Target: PhoP (phosphorylated, PhoP-P) (Shigella flexneri 2a 301 (Sf301)) (UniProt Q83RR0)
Assay: EMSA
Conditions: acetylphosphate-phosphorylated, 0.16-1.6 uM; EMSA: Roche DIG Gel Shift Kit, 25 C 20 min, 6% native PAGE, buffer/pH not stated; recombinant protein; protein details: His-tag (pET-28a(+), BamHI/XhoI); label: digoxigenin (terminal transferase); probe letters rebuilt from the primers and the genome

| Sequence | binding result |
| --- | --- |
| TTATCGAACATATAGCTTTCCCCCTCTTTTTTTCAAAGCAAGACACAGGTAAATTTCTCCCGTTGCATTGATATATAACACAGCTCTCATGTTTTGGTTGAGGCTTTGTTTAATATGTTTTTGCATATATCGTCCCTTTATTCCGGATAAAACGGAATCTTTTCAGGGGTTTATCAACCACTTACTGAT (double strand) [icsA promoter] | binds |
| CTGTTGTCCCATAACGTGTTGTTTAATTATTTGAGCCTAACTTTACCCGTGCATTCAGCAATGGGTAAAGTCTGGTTTATCGTTGGTTTAGTTGCCAGCAGGTATTATATCGCCATAAATGCTACGAATATTATTGGATTCTCCTTATTATTTGCGGCGCTTTTTTCACTTACCGGAGGTTATATGG (double strand) [mgtA promoter] | binds |
| GAGTACCTGTGTTGTTCTGAGGTGAACATATCACCTCTGTTCAGGTAGCCAAATTCAGTGTGCCACCTCAAGGTTCTTAGTGAGTCGTTTTTAAAAGATATGATAATATATCATTGTTTATGAATTGTTGATGTTTAATTTAGTAAATTATATCAAATATGCCATGGGTTTGCTATGTTATTCATCCAGTATCTGGAAATAAAATGCACCAGCTTTATTGGGTT (double strand) [shf promoter] | binds |
| AATCACGTACTGAAATCGTTCTCAATCAACGTCATTTGTACATTTTGTGCGCTTTTCACTTTCAGAAGAACCTTAAGAAAACCTTAAGAGGCATTGTTTAGGTTTTGTTTAAGTTAATCGACCATACTGGAGATCGTCAGAAAATATTTCCAGGAGATGGCATGATTC (double strand) [yrbL promoter] | binds |
| GCCTCAAATCAGTGCCGGATGGCGATGCTGTCCGGCCTGCTTATTAAGATTATCCACTTTTTCTTTTTTCACTTTACCTCCCCTCCCCGCTGGTTTATTTAATGTTTACCCCCATAAACACATAATCGCGTTACACTATTTTAATAATTAAGACAGGGAGAAATAAAAATGCGCGT (double strand) [phoPQ promoter] | binds |
| CGGTAGATATAAAAACGTCACAATACACCGCGCTGTTTTTACTTACTATCAATCGTTTCTAAACAAGTTTTCATCAGGTATTCTACTGATGACTTGTTATGGAAGTGTTAAGGTAAAAAGATGGGGCTGGTAATCAAAGCCGCGCTCGGTGCGCTGGTAGTGCTGTTGATTGGTGTTTTAGCAAAAACGAAAAATTATTATATCGCCGGGCTGATTCCAC (double strand) [rstA promoter] | binds |
| CGTGAATACCATGCGGAATGACCGATTTTTACCGTTGGTAGTAAAACATTATCTTCAAATCAATAATCATCATGAATGTTTTGTTTATAATTGGTTGATCCTACTTTCATTATGATTTGCTCATATTTGGTAGAACATGTAACCATGGATTCACATATGCCATATACTTTGACCATGAGGGATGCT (double strand) [slyB promoter] | binds |
| GATCCGTAATTTAACTTTCGATTATCAGAAATTTCGAAAGGTAAAATATCCTTGTCACATTCGTTTGCAAAGGAAGGTAAATCTTTGCCAAATCAGAGGCGTCTCTGATATGTTTAACTCCCGTTTAACAACCATGGAGTATAGGGCAGTAGCCCGCAGTATGGATCGTCACCGACGTCATTTCAGCATCAGGCCTTTTAACGCCTGCCTTTCT (double strand) [yoaE promoter] | binds |
| GGAAACTTTGTGCTCTCAGTAAGTTAAATATAACTTTTACAGGAAATAAGATCAGCCATTTTTTTATAAACATAAGCTATACGCTGTGCGAAAATATATTCGTGCTGCATTTACTTATTATCAATTAACTGTTATGCAAAACTACTTTGTGGATAAATTTTGGTCCTACCAAATCTGGCAGTTTTTGCGCTAAGAAACAGTCTGTCATCATTTCATTAGTATACTGAAATTGAAATAATCGCAG (double strand) [yhiW promoter] | binds |
| TAAAGTGAAAGAGCCGTCACGAATCAATTTCGACACTGAGGTTATAACCTGGTTTTCTGTATATGTCATGTTGATGGAAAATATCAAAATCAGATATTTTTATTTCAATACAATGAGTTACAGATGCATCAGATACTGCAATTAGGAAATTTTTATTAAATCGACTGCATTCTTAGACGCGTTTTTGGCATAGATTGATAGCAGGGGAT (double strand) [hdeA promoter] | binds |
| TCTACTACTAGCATAGCAAAGCTACAATTAACATAACCTTAATAGACCCAACATAAAGAATAATCTGAATAGCTGCTCTATTTATTTCCGCTTGTTCAAGTTAAATATTTCCGCGCATCGATTAAAGATGATGCGTCGTTTTCTGCGATGGGAATAGTCAAAAAAGAAAAACCAAGTCTTTTTTGATGACAAAATGCAATCAAGGAAAAATTATTTTATTTTTTTTACGAGATACAACAATCATCT (double strand) [pagP promoter] | binds |

Target: PhoP (footprinting) (Shigella flexneri 2a 301 (Sf301)) (UniProt Q83RR0)
Assay: DNase I footprinting
Conditions: phosphorylation ambiguous, two protected regions; footprinting: 500 ng probe in 40 ul binding buffer (not specified), 30 C 30 min, DNase I 25 C 1 min; recombinant protein; residues 1-223; protein details: His-tag (pET-28a(+), BamHI/XhoI); label: FAM; probe letters rebuilt from the primers and the genome; part of a longer molecule

| Sequence | binding result |
| --- | --- |
| CCATATAACCTCCGGTAAGTGAAAAAAGCGCCGCAAATAATAAGGAGAATCCAATAATATTCGTAGCATTTATGGCGATATAATACCTGCTGGCAACTAAACCAACGATAAACCAGACTTTACCCATTGCTGAATGCACGGGTAAAGTTAGGCTCAAATAATTAAACAACACGTTATGGGACAACAG (double strand) [mgtA promoter footprint probe] | binds |

Same assay, conditions: phosphorylation ambiguous; footprinting: 500 ng probe in 40 ul binding buffer (not specified), 30 C 30 min, DNase I 25 C 1 min; recombinant protein; residues 1-223; protein details: His-tag (pET-28a(+), BamHI/XhoI); label: FAM; probe letters rebuilt from the primers and the genome; part of a longer molecule

| Sequence | binding result |
| --- | --- |
| GAGTACCTGTGTTGTTCTGAGGTGAACATATCACCTCTGTTCAGGTAGCCAAATTCAGTGTGCCACCTCAAGGTTCTTAGTGAGTCGTTTTTAAAAGATATGATAATATATCATTGTTTATGAATTGTTGATGTTTAATTTAGTAAATTATATCAAATATGCCATGGGTTTGCTATGTTATTCATCCAGTATCTGGAAATAAAATGCACCAGCTTTATTGGGTT (double strand) [shf promoter footprint probe] | binds |
| AGAAAGGCAGGCGTTAAAAGGCCTGATGCTGAAATGACGTCGGTGACGATCCATACTGCGGGCTACTGCCCTATACTCCATGGTTGTTAAACGGGAGTTAAACATATCAGAGACGCCTCTGATTTGGCAAAGATTTACCTTCCTTTGCAAACGAATGTGACAAGGATATTTTACCTTTCGAAATTTCTGATAATCGAAAGTTAAATTACGGATC (double strand) [yoaE promoter footprint probe] | binds |
